Anti-infective test results gathered from many reports (values: NIAID ChemDB through PubChem).

Shared fields: tests in culture; species: Hepatitis C virus; read-out: EC50

An empty or dashed field is not shown. Two numbers with a dash give a range or band. Neighbouring rows are from separate reports. ECn: concentration that inhibits the pathogen or its effect by n%.

structure,strain,read by,conditions,value
COc1ccc2c(c1)[C@@H]1C[C@]1(C(=O)N1[C@@H]3C[C@H]1CN(S(C)(=O)=O)C3)Cn1c-2c(C2CCCCC2)c2ccc(C(=O)NS(=O)(=O)N(C)C)cc21,1b,replicon,,0.001–0.5 µM
CCNC(=O)N[C@H](C(=O)N1CC[C@H]2[C@H]1C1(CCC1)C(=O)N2C(=O)C1CC1)C(C)C,,,,4.5 µM
Cc1cc(Br)ccc1C(=O)N(c1cc(-c2ccc(-c3cn4ccccc4n3)cc2)sc1C(=O)O)C(C)C,1b,luciferase / replicon,,0.1–0.5 µM
CCC[C@H](NC(=O)[C@@H]1C[C@@H](Oc2nc(-c3c(C)cnn3C)nc3ccsc23)CN1C(=O)[C@@H](NC(=O)NC(C)(C)C)C(C)(C)C)C(=O)C(=O)NC1CC1,1b,replicon,,<1 µM
O=c1[nH]c(=O)n([C@@H]2O[C@H](CO)[C@@H](O)[C@@H]2F)cc1/C=C/Br,Con1,replicon,,0.02 µM
CC(C)[C@H](NC(=O)NCC1CC1)C(=O)N1CC[C@H]2[C@H]1C1(CCC1)C(=O)N2C(=O)C1CC1,,,,2.8 µM
CC1CCC(C(=O)N(c2cc(-c3ccc(NC(=O)c4cccnn4)cc3)sc2C(=O)O)C2CCC2)CC1,1a,replicon,,<0.5 µM
CS(=O)(=O)Nc1ccc2c(c1)S(=O)(=O)N=C(C1=C(O)C3C([C@@H]4CC[C@H]3C4)N(Cc3nccs3)C1=O)N2,1b,replicon,,1 µM
COc1ccc2c(c1)C1CC1(C(=O)N1[C@@H]3C[C@H]1CN(C(=O)N(C)C)C3)Cn1c-2c(C2CCCCC2)c2ccc(C(=O)NS(=O)(=O)N(C)C)cc21,1b,replicon,,0.001–0.5 µM
CC(Nc1nc(NCC(F)(F)F)c2nc(-c3ccc(F)cc3)ccc2n1)c1ccc(S(N)(=O)=O)cc1,,replicon,,<0.1 µM
CC1CCC(C(=O)N(c2cc(-c3ccc(NC(=O)c4ncco4)cc3)sc2C(=O)O)C(C)C)CC1,1b,replicon,,<0.5 µM
COCCN(C(=O)c1ccc(Cl)cc1Cl)c1cc(-c2ccc(-c3cc4ncccn4n3)cc2)sc1C(=O)O,1a,luciferase / replicon,,0.01–0.05 µM
CCOc1nc(NCc2ccc(CS(=O)(=O)NC)cc2)nc2ccc(-c3ccc(F)cc3)nc12,,replicon,,<0.1 µM
CC(C)N(C(=O)c1ccc(Cl)cc1Cl)c1cc(-c2ccc(-c3cc4nccc(N)n4n3)cc2)sc1C(=O)O,1b,replicon / ELISA,,0.005–0.01 µM
CC(C)CN(C[C@@H](O)[C@H](Cc1ccccc1)NC(=O)O[C@H]1CCOC1)S(=O)(=O)c1ccc(N)cc1,1b,luciferase / reporter gene,,0.3103 µM
COc1c(CC=C(C)C)c(O)cc2oc(=O)c(-c3ccc(O)cc3O)cc12,1b,replicon,,15.5 µg/mL
COc1ccc2c(c1)C1CC1(C(=O)N1[C@@H]3C[C@H]1CN(C(C)=O)C3)Cn1c-2c(C2CCCCC2)c2ccc(C(=O)NS(=O)(=O)N(C)C)cc21,1b,replicon,,0.001–0.5 µM
CC1CCC(C(=O)N(c2cc(-c3ccc(NC(=O)c4cscn4)s3)sc2C(=O)O)C(C)C)CC1,1b,replicon,,<0.5 µM
Cc1cnn(C)c1-c1nc(O[C@@H]2C[C@@H](C(=O)N[C@@H](CC3CCC3)C(=O)C(=O)NC3CC3)N(C(=O)[C@@H](NC(=O)NCC3CC3)C(C)(C)C)C2)c2sccc2n1,1b,replicon,,<1 µM
CC(C)NC(=O)N[C@H](C(=O)N1CC[C@H]2[C@H]1C1(CCC1)C(=O)N2C(=O)C1CC1)C(C)C,,,,6.3 µM
O=C(O)/C=C/c1ccc(NC(=O)C2(NC(=O)c3ccc4c(c3)nc(-c3ccccn3)n4C3CCCCC3)CCCC2)cc1,1b,replicon,,0.55 µM
CCOc1nc(NCc2ccc(Cl)cc2F)nc2ccc(-c3ccc(F)cc3)nc12,,replicon,,<0.1 µM
CB1OCCC1NC(=O)[C@@H]1C[C@@H]2CN1C(=O)[C@H](C(C)(C)C)NC(=O)OCC(C)(C)CCCCc1cccc3c1CN(C3)C(=O)O2,,replicon,genotype 1b,>50 µM
CC(C)[C@H](NC(=O)N[C@H](C(=O)N1CC[C@H]2[C@H]1C1(CCC1)C(=O)N2C(=O)C1CC1)C(C)C)C(=O)N1CC[C@H]2[C@H]1C1(CCC1)C(=O)N2C(=O)C1CC1,,,,0.39 µM
Nc1cc(N)cc(-c2ccc3c(CC(=O)O)cn(Cc4c(-c5cccc(Cl)c5)sc5ccccc45)c3c2)c1,,,,<10 µM
CCOc1nc(NCc2ccc(C(F)(F)F)c(F)c2)nc2ccc(-c3ccc(F)cc3)nc12,,replicon,,<0.1 µM
COc1ccc2c(O[C@@H]3C[C@H]4C(=O)N[C@]5(C(=O)O)C[C@H]5/C=C\CCCCC[C@H](NC(=O)OC5CCCC5)C(=O)N4C3)cc(-c3csc(NC(C)C)n3)nc2c1,1b,luciferase / reporter gene,,0.00933 µM
CC1(C)CCCCc2cccc3c2CN(C3)C(=O)O[C@@H]2C[C@@H](C(=O)NC3CCOB3O)N(C2)C(=O)[C@H](C(C)(C)C)NC(=O)OC1,,replicon,genotype 1b,0.52 µM
COc1ccc2c(c1)C1CC1(C(=O)N1[C@@H]3C[C@H]1CN(S(C)(=O)=O)C3)Cn1c-2c(C2CCCCC2)c2ccc(C(=O)NS(=O)(=O)N(C)C)cc21,1b,replicon,,0.001–0.5 µM
C[C@@]1(O)[C@H](O)[C@@H](CO)O[C@H]1n1cnc2c(N)ncnc21,1b,luciferase / reporter gene,,0.4468 µM
COc1cnc(O[C@@H]2C[C@H]3C(=O)N[C@]4(C(=O)NS(=O)(=O)C5CC5)C[C@H]4/C=C\CCCCC[C@@H](NC(=O)Nc4ccc5c(c4)B(O)OC5)C(=O)N3C2)c2cc(Cl)ccc12,1b,replicon,,0.0039 µM
CC1CCC(C(=O)N(c2cc(-c3ccc(NC(=O)c4cccnn4)cc3)sc2C(=O)O)C(C)C)CC1,1a,replicon,,<0.5 µM
Cc1cc(Br)ccc1C(=O)N(c1cc(-c2ccc(-c3cc4ncccn4n3)cc2)sc1C(=O)O)C(C)C,1a,luciferase / replicon,,0.1–0.5 µM
CCOc1nc(NCc2ccc(Cl)c(F)c2)nc2ccc(-c3ccc(F)cc3)nc12,,replicon,,<0.1 µM
CC(C)[C@H](NC(=O)NC1CCCCC1)C(=O)N1CC[C@H]2[C@H]1C1(CCC1)C(=O)N2C(=O)C1CC1,,,,1.2 µM

The last 4 rows once more:

CC1CCC(C(=O)N(c2cc(-c3ccc(NC(=O)c4cccnn4)cc3)sc2C(=O)O)C(C)C)CC1 ; strain: 1a ; read by: replicon ; value: <0.5 µM
Cc1cc(Br)ccc1C(=O)N(c1cc(-c2ccc(-c3cc4ncccn4n3)cc2)sc1C(=O)O)C(C)C ; strain: 1a ; read by: luciferase / replicon ; value: 0.1–0.5 µM
CCOc1nc(NCc2ccc(Cl)c(F)c2)nc2ccc(-c3ccc(F)cc3)nc12 ; read by: replicon ; value: <0.1 µM
CC(C)[C@H](NC(=O)NC1CCCCC1)C(=O)N1CC[C@H]2[C@H]1C1(CCC1)C(=O)N2C(=O)C1CC1 ; value: 1.2 µM